In paper PMC8154581, “Discovery of Novel Thiophene-arylamide Derivatives as DprE1 Inhibitors with Potent Antimycobacterial Activities” (Journal of Medicinal Chemistry, 2021):
In brackets after ≈: the same amount, converted by molar mass.

Key:
[1] = tested on: PBTZ169-resistant strain of M. tuberculosis; experiment: MIC against PBTZ169-resistant strain; format: cell-based
[2] = tested on: M. bovis BCG Pasteur strain transformed with pMV261; experiment: MIC against M. bovis BCG Pasteur transformed with empty pMV261 (wild type)
[3] = tested on: drug-resistant tuberculosis strains; experiment: MIC against drug-resistant tuberculosis strains (pooled in abstract); conditions: range over the named compounds and strains
Vero cells = experiment: Cytotoxicity assay in Vero cells (MTT); format: cell-based; conditions: selectivity index, IC50/MIC
[4] = tested on: M. bovis BCG Pasteur transformed with pMV261:Mt-dprE1; experiment: MIC against M. bovis BCG Pasteur overexpressing Mt-DprE1; format: cell-based, Mycobacterium bovis; conditions: ratio of MIC against DprE1-overexpressing strain and wild-type strain
[5] = tested on: bedaquiline-resistant strain of M. tuberculosis; experiment: MIC against bedaquiline-resistant strain; format: cell-based

| SMILES | MIC PBTZ169-resistant strain [1] | MICWT [2] | MIC drug-resistant tuberculosis strains [3] | SI (Vero cells) | MIC foldshift [4] | MIC bedaquiline-resistant strain [5] |
| --- | --- | --- | --- | --- | --- | --- |
| CCOC(=O)NC(=O)c1ccsc1NC(=O)c1nc2ccccc2s1 [TCA1, reference compound] | 1.23 µg/mL (≈ 3.28 µM) | 0.48 µg/mL |  |  |  |  |
| COC(=O)NC(=O)c1ccsc1NC(=O)c1ccc(C(=O)N2CCCCC2)cc1 [Compound 25a, Methyl (2-(4-(Piperidine-1-carbonyl)benzamido)thiophene-3-carbonyl)carbamate] | 0.48 µg/mL (≈ 1.16 µM) | 0.76 µg/mL | 0.031 to 0.24 µg/mL |  |  |  |
| COC(=O)NC(=O)c1ccsc1NC(=O)c1ccc(C(=O)N2CCCCC2)c(F)c1 [Compound 25b, Methyl (2-(3-Fluoro-4-(piperidine-1-carbonyl)benzamido)thiophene-3-carbonyl)carbamate] |  | 0.12 µg/mL | 0.031 to 0.24 µg/mL |  |  |  |
| CCOC(=O)NC(=O)c1ccsc1NC(=O)c1ccc(C(=O)N2CCCCC2)cc1 [Compound 23j, Ethyl (2-(4-(Piperidine-1-carbonyl)benzamido)thiophene-3-carbonyl)carbamate] | 0.14 µg/mL (≈ 0.326 µM) | 0.32 µg/mL | 0.031 to 0.24 µg/mL |  |  |  |
| CCOC(=O)NC(=O)c1ccsc1NC(=O)c1ccc(C(=O)N2CCCCC2)s1 [Compound 24j, Ethyl (2-(5-(Piperidine-1-carbonyl)thiophene-2-carboxamido)thiophene-3-carbonyl)carbamate] |  | 0.28 µg/mL |  | >457 | 32 |  |
| CCOC(=O)NC(=O)c1ccsc1NC(=O)c1ccc(C(=O)N2CCCCC2)c(F)c1 [Compound 24f, Ethyl (2-(3-Fluoro-4-(piperidine-1-carbonyl)benzamido)thiophene-3-carbonyl)carbamate] | 0.062 µg/mL (≈ 0.139 µM) | 0.064 µg/mL | 0.031 to 0.24 µg/mL | >4000 | >8 | 0.054 µg/mL (≈ 0.121 µM) |
| O=C(Nc1sccc1C(=O)Nc1nccc(C(F)(F)F)n1)c1ccc(C(=O)N2CCCCC2)cc1 [Compound 25l, 2-(4-(Piperidine-1-carbonyl)benzamido)-N-(4-(trifluoromethyl)pyrimidin-2-yl)thiophene-3-carboxamide] |  | 1.60 µg/mL |  | >320 | 8 |  |
